Results of unrelated studies side by side (data: NIAID ChemDB).

All rows: tests in culture; species: Mycobacterium tuberculosis

Percent inhibition refers to the dose given; in toxicity tests it is the harm to the cells.

smiles	strain or isolate	endpoint	mutations	read by	tested at	value
O=C(NCc1ccc(Br)cc1)c1cc(Cl)ccc1O	My 331/88	MIC				16 µg/mL
Cc1c(N2CCC(n3c(=O)[nH]c4cc(Cl)ccc43)CC2)c([N+](=O)[O-])cc2c(=O)c(C(=O)O)cn(-c3ccc(F)cc3F)c12	H37Rv	MIC				>20.49 µM
NC(=O)c1cnccn1	Isolate 97-1006	MIC				900 µg/mL
CN(C)CCNC(=O)c1cccc2nc3c(ccc4ccccc43)nc12.Cl	H37Rv	MIC bound		BACTEC		≤12.5 µg/mL
Cc1c(N2CCn3cc(C(=O)O)nc3C2)c([N+](=O)[O-])cc2c(=O)c(C(=O)O)cn(C(C)(C)C)c12	H37Rv	MIC				26.63 µM
CCOC(=O)c1ccc(N2CCN(CCn3c(-c4ccc5c(c4)OCO5)nc4cc(C(=O)OCC)ccc43)CC2)c(N)c1	INHR-MTB	MIC	Isoniazid-resistant	resazurin		41.72 µM
O=C(N/N=C/c1ccc(Br)cc1)c1cc(-c2ccc(F)cc2F)ccc1O	H37Rv	inhibition		resazurin	6.25 µg/mL	16%
Cc1c(N=Nc2cccc(F)c2)c(-c2ccccc2)nn1C(=S)S	H37Rv	MIC		BACTEC		32 µg/mL
N#Cc1ccc(Nc2nc(Oc3cccc4cccnc34)nc(N3CCN(c4cccc(Cl)c4Cl)CC3)n2)cc1C(F)(F)F	H37Rv	MIC		BACTEC		>6.25 µg/mL
O=C(Nc1ccccc1)c1cnccn1	ATCC 27294	MIC		resazurin		>100 µg/mL
CC1(C)S[C@@H]2[C@H](NC(=O)C(C(=O)O)c3ccccc3)C(=O)N2[C@H]1C(=O)O	24 strains (drug-susceptible)	MIC90				>256 µg/mL
O=C(CC1=Nc2nnc(-c3nnc4n3C(=O)C(CC(=O)c3cccnc3)=N4)n2C1=O)c1cccnc1	H37Rv	MIC bound		BACTEC		>12.5 µg/mL
Cc1ccc(O)c(C(=O)NCc2ccc(Cl)cc2)c1	My 331/88	MIC				62.5 µg/mL
O=C(Nc1ccc(F)cc1)c1cnccn1	ATCC 27294	MIC		resazurin		>100 µg/mL
NC(=O)C(=O)CC(=O)c1ccccc1NC1=CC(=O)C(=O)c2ccccc21	H37Rv	MIC		resazurin		≤0.1 µg/mL
CCn1c(C)cc(O)c(-c2ccccc2)c1=O	H37Ra	MIC				64 µg/mL
Cc1ccc(-c2cc(CN3CCOCC3)c(C)n2-c2ccc(F)cc2)cc1	H37Rv DR7	MIC	Q40R			0.68 µM
CCCCOc1ccc(N2C(=O)CC(Nc3ccc(Oc4ccc(Cl)cc4)c(Cl)c3)C2=O)cc1	H37Rv	MIC				100 µg/mL
COc1ccc(CCn2nnc3ccccc3c2=O)cc1OC	H37Rv	inhibition		BACTEC	12.5 µg/mL	4%
Cc1c(N2CCN(C)C(c3ccccc3)C2)c([N+](=O)[O-])cc2c(=O)c(C(=O)O)cn(C(C)(C)C)c12	H37Rv	MIC				>26.12 µM
O=C(O)CCN1CSC(=S)N(Cc2ccccc2)C1	H37Rv	MIC				50 µg/mL
[CH3][Sn]1([CH3])[c]2ccccc2Oc2cccc[c]21	H37Rv	inhibition		BACTEC	12.5 µg/mL	0%
CCc1ccc(-c2cc(CN3CCOCC3)c(C)n2-c2ccc(F)cc2)cc1	H37Rv	MIC				0.04 µM
Cc1cccc(O)c1C(=O)NCc1ccc(Cl)cc1	My 331/88	MIC				16 µg/mL
S=C1SCN(C2CC2)CN1C1CC1	H37Rv	MIC				25 µg/mL
COC(=O)c1cc(-c2ccc(F)cc2F)ccc1O	H37Rv	inhibition		resazurin	6.25 µg/mL	30%
NC(N)=NC(N)=Nc1cc2c3ccccc3ccc2c2ccccc12	H37Rv	inhibition		BACTEC	6.25 µg/mL	98%
CC[C@H]1OC(=O)[C@H](C)[C@@H](O[C@H]2C[C@@](C)(OC)[C@@H](O)[C@H](C)O2)[C@H](C)[C@@H](O[C@@H]2O[C@H](C)C[C@H](N(C)C)[C@H]2O)[C@](C)(OC)C[C@@H](C)C(=O)[C@H](C)[C@@H](O)[C@]1(C)O	90-0201 (drug-susceptible)	MIC				2 µg/mL
O=C1CSC(c2cccc(O)c2O)N1c1nncs1	H37Rv	MIC bound		BACTEC		>12.5 µg/mL
N[C@@H]1CONC1=O	90-0240 (drug-susceptible)	MIC				75 µg/mL
O=C(Nc1ccc(C(F)(F)F)cc1)c1cnccn1	ATCC 27294	MIC		resazurin		>100 µg/mL
Nc1ncc(F)c2c1ncn2[C@@H]1O[C@H](CO)[C@@H](O)[C@H]1O	H37Ra	MIC				10–100 µg/mL
CCOC(=O)c1ccc(N2CCN(CCn3c(-c4ccc(C)cc4)nc4cc(C(=O)OCC)ccc43)CC2)c(N)c1	H37Rv	MIC		resazurin		6.195 µM
Cc1[nH]c2c(ccc3c2ccc2c(=O)c(Cl)c(C)[nH]c23)c(=O)c1Cl	H37Rv	MIC bound				>6.25 µg/mL
Cc1cc2c(ncn2[C@@H]2O[C@H](CO)[C@@H](O)[C@H]2O)c(C)n1	SRICK1	MIC				>100 µg/mL
CC1COc2c(N3CCN(C)CC3)c(F)cc3c(=O)c(C(=O)O)cn1c23	24 strains (drug-susceptible)	MIC90				1 µg/mL
Oc1ccccc1C(=S)NCc1ccc(F)cc1	My 331/88	MIC				0.5 µg/mL
NNC(=O)c1ccncc1	H37Rv	MIC90				>128 µM
CCOc1ccc(N2C(=O)CC(Nc3ccc(Oc4ccc(Cl)cc4)c(Cl)c3)C2=O)cc1	H37Rv	MIC				100 µg/mL
CC(C)N1CCN(c2nc(Nc3ccc(C#N)c(C(F)(F)F)c3)nc(Oc3cccc4cccnc34)n2)CC1	H37Rv	MIC		BACTEC		>6.25 µg/mL
O=C(O)CCCN1CSC(=S)N(Cc2ccccc2)C1	H37Rv	MIC				12.5 µg/mL
C/C=C1/C[C@@H](C)[C@](C)(O)C(=O)OC[C@@H]2[C@@H]3[C@@H](CCN3C[C@H]2O)OC1=O	H37Rv	inhibition		BACTEC	12.5 µg/mL	20%
Cc1cc(O)c(-c2ccccc2)c(=O)n1-c1ccccc1	H37Ra	MIC				128 µg/mL
CCc1nc2ccc(Cl)cn2c1C(=O)NCc1ccc(N2CCC(c3ccc(OC(F)(F)F)cc3)CC2)cc1	N0157	MIC50		turbidity		0.0024 µM
O=C(N/N=C/c1ccc(Cl)cc1Cl)c1cc(-c2ccc(F)cc2F)ccc1O	H37Rv	MIC		resazurin		>6.25 µg/mL
CC1(C)C=Cc2c(ccc3c(=O)c(-c4ccc5c(c4)OCO5)coc23)O1	H37Rv	MIC		BACTEC		≥12.5 µg/mL
N#Cc1ccc(Nc2nc(Oc3cccc4cccnc34)nc(N3CCN(C(c4ccccc4)c4ccc(Cl)cc4)CC3)n2)cc1C(F)(F)F	H37Rv	MIC99		agar		6.25 µg/mL
Cc1c(N2CCN(C(=O)c3ccco3)CC2)c([N+](=O)[O-])cc2c(=O)c(C(=O)O)cn(C(C)(C)C)c12	H37Rv	MIC				25.91 µM
O=C(N/N=C/c1ccccc1O)c1cc(-c2ccc(F)cc2F)ccc1O	H37Rv	inhibition		resazurin	6.25 µg/mL	17%
CCCCC/C=C(/C(=O)O)C(C)C(=O)O	H37Ra	MIC				>200 µg/mL
Cc1ccc(-n2c(-c3ccc(Cl)cc3)cc(CN3CCOCC3)c2C)cc1	H37Rv	MIC90				30.76 µM
CC(C)N=c1cc2n(-c3ccc(Cl)cc3)c3ccccc3nc-2cc1Nc1ccc(Cl)cc1	90-0241 (drug-susceptible)	MIC				0.4 µg/mL
O=C(CN1CCOCC1)NC1=Nc2ncccc2C(=O)NN1	H37Rv	MIC bound		resazurin		>6.25 µg/mL
CN1CCN(c2nc(Nc3ccc(C#N)c(C(F)(F)F)c3)nc(Oc3cccc4cccnc34)n2)CC1	H37Rv	MIC97		agar		250 µg/mL
Cc1c(N2CCN(C(=O)C3COc4ccccc4O3)CC2)c([N+](=O)[O-])cc2c(=O)c(C(=O)O)cn(C(C)(C)C)c12	H37Rv	MIC				>22.7 µM
Cc1cc(O)c(-c2ccccc2)c(=O)n1C	H37Ra	MIC				16 µg/mL
O=C(N/N=C/c1ccccc1)c1cc(-c2ccc(F)cc2F)ccc1O	H37Rv	MIC		BACTEC		>6.25 µg/mL
C[C@@H]1CN(c2c(F)c(N)c3c(=O)c(C(=O)O)cn(C4CC4)c3c2F)C[C@H](C)N1	92-0492 MDR (INH RIF-resistant)	MIC				0.2 µg/mL
O=C1CC(Nc2ccc(Oc3ccc(Cl)cc3)c(Cl)c2)C(=O)N1c1cnc2ccccc2c1	H37Rv	MIC				100 µg/mL
NCC[C@H](O)C(=O)N[C@@H]1C[C@H](N)[C@@H](O[C@H]2O[C@H](CN)[C@@H](O)[C@H](O)[C@H]2O)[C@H](O)[C@H]1O[C@H]1O[C@H](CO)[C@@H](O)[C@H](N)[C@H]1O	90-0241 (drug-susceptible)	MIC				0.5 µg/mL
CCn1cc(C(=O)O)c(=O)c2cc(F)c(N3CCN(CN4C(=O)/C(=N\c5ncc(Cc6cc(OC)c(OC)c(OC)c6)c(N)n5)c5cc(Cl)ccc54)CC3)cc21	H37Rv	MIC bound		resazurin		>6.25 µg/mL
Cc1ccc(CNC(=S)c2ccc([N+](=O)[O-])cc2O)cc1	My 331/88	MIC				32 µg/mL
CCCCCCCCS(=O)(=O)CC(N)=O	5D5178	MIC				≤6.25 µg/mL
CCOC(=O)c1ccc(N2CCN(CCn3c(-c4cncc(-c5ccc(F)cc5)c4)nc4cc(C(=O)OCC)ccc43)CC2)c(N)c1	INHR-MTB	MIC	Isoniazid-resistant	resazurin		6.12 µM
Nc1nccc2c1ncn2[C@@H]1O[C@H](CO)[C@@H](O)[C@H]1O	SRICK1::ADOK	MIC				>100 µg/mL
N#Cc1ccc(Nc2nc(Oc3cccc4cccnc34)nc(N3CCN(c4ncccn4)CC3)n2)cc1C(F)(F)F	H37Rv	MIC96		agar		200 µg/mL
CCCCCCCC(=O)N1[C@H]2[C@@H]1CN1C3=C(C(=O)C(N)=C(C)C3=O)[C@@H](COC(N)=O)[C@@]21OC	CS-R	MIC				0.4 µg/mL
CCOC(=O)c1ccc(N2CCN(CCn3c(-c4ccc(O)cc4O)nc4cc(C(=O)OCC)ccc43)CC2)c(N)c1	INHR-MTB	MIC	Isoniazid-resistant	broth dilution		26.12 µM
Cc1c(N2COCC2(C)C)c([N+](=O)[O-])cc2c(=O)c(C(=O)O)cn(C3CC3)c12	H37Rv	MIC				2.01 µM
O=C(CCCC(=O)N=Nc1c(Cl)c(O)c2ccccc2c1O)N=Nc1c(Cl)c(O)c2ccccc2c1O	H37Rv	inhibition		BACTEC	12.5 µg/mL	77%
N#Cc1ccc(Nc2nc(Oc3cccc4cccnc34)nc(N3CCN(c4cccc(Cl)c4)CC3)n2)cc1C(F)(F)F	H37Rv	MIC		BACTEC		>6.25 µg/mL
NC(=O)N1CCN(CCCN2c3ccccc3Sc3cc(Cl)ccc32)CC1	H37Rv	inhibition		BACTEC	12.5 µg/mL	18%
CCN1CCN(c2nc(Nc3ccc(C#N)c(C(F)(F)F)c3)nc(Oc3cccc4cccnc34)n2)CC1	H37Rv	MIC98		agar		200 µg/mL
Cc1cc(O)c(-c2cccc(Cl)c2)c(=O)[nH]1	H37Ra	MIC				16 µg/mL
COc1c2c(cc3c1-c1c(cc4c(c1OC)OCO4)CC(C)C(C)C3)OCO2	H37Rv	MIC		BACTEC		≥12.5 µg/mL
Cc1cccc(CNC(=S)c2ccccc2O)c1	My 331/88	MIC				0.5 µg/mL
S=C(S)NNc1ccccc1	H37Rv	inhibition		BACTEC	12.5 µg/mL	99%
COc1ccc(NC(=O)c2cnccn2)cc1	ATCC 27294	MIC		resazurin		>100 µg/mL
COC(=O)[C@@H](NC(=O)[C@H](C)NC(=O)C1CCCN1C(=O)CNC(=O)[C@H](CO)NC(=O)[C@@H](NC(=O)OCc1ccccc1)C(C)O)C(C)O	H37Rv	inhibition		BACTEC	12.8 µg/mL	23%
O=C(O)c1ccc(N2C(=O)CC(Nc3ccc(Oc4ccc(Cl)cc4)c(Cl)c3)C2=O)cc1	H37Rv	MIC				>200 µg/mL
COc1ccc(CNC(=S)c2ccccc2O)cc1	My 331/88	MIC				4 µg/mL
CC1(C)N=c2cc3c(cc2N1c1ccc(Cl)cc1)=Nc1ccccc1N3c1ccc(Cl)cc1	PZA-R	MIC				0.8 µg/mL
NC[C@H]1O[C@H](O[C@H]2[C@H](O)[C@@H](O[C@H]3O[C@H](CO)[C@@H](O)[C@H](N)[C@H]3O)[C@H](N)C[C@@H]2N)[C@H](O)[C@@H](O)[C@@H]1O	90-0241 (drug-susceptible)	MIC				2 µg/mL

Repeating the first 8 entries:

{"smiles": "O=C(NCc1ccc(Br)cc1)c1cc(Cl)ccc1O", "strain or isolate": "My 331/88", "endpoint": "MIC", "value": "16 µg/mL"}
{"smiles": "Cc1c(N2CCC(n3c(=O)[nH]c4cc(Cl)ccc43)CC2)c([N+](=O)[O-])cc2c(=O)c(C(=O)O)cn(-c3ccc(F)cc3F)c12", "strain or isolate": "H37Rv", "endpoint": "MIC", "value": ">20.49 µM"}
{"smiles": "NC(=O)c1cnccn1", "strain or isolate": "Isolate 97-1006", "endpoint": "MIC", "value": "900 µg/mL"}
{"smiles": "CN(C)CCNC(=O)c1cccc2nc3c(ccc4ccccc43)nc12.Cl", "strain or isolate": "H37Rv", "endpoint": "MIC bound", "read by": "BACTEC", "value": "≤12.5 µg/mL"}
{"smiles": "Cc1c(N2CCn3cc(C(=O)O)nc3C2)c([N+](=O)[O-])cc2c(=O)c(C(=O)O)cn(C(C)(C)C)c12", "strain or isolate": "H37Rv", "endpoint": "MIC", "value": "26.63 µM"}
{"smiles": "CCOC(=O)c1ccc(N2CCN(CCn3c(-c4ccc5c(c4)OCO5)nc4cc(C(=O)OCC)ccc43)CC2)c(N)c1", "strain or isolate": "INHR-MTB", "endpoint": "MIC", "mutations": "Isoniazid-resistant", "read by": "resazurin", "value": "41.72 µM"}
{"smiles": "O=C(N/N=C/c1ccc(Br)cc1)c1cc(-c2ccc(F)cc2F)ccc1O", "strain or isolate": "H37Rv", "endpoint": "inhibition", "read by": "resazurin", "tested at": "6.25 µg/mL", "value": "16%"}
{"smiles": "Cc1c(N=Nc2cccc(F)c2)c(-c2ccccc2)nn1C(=S)S", "strain or isolate": "H37Rv", "endpoint": "MIC", "read by": "BACTEC", "value": "32 µg/mL"}

A number after MIC or MFC names an inhibition level or a share of isolates. An empty or dashed field is not shown. Conditions beyond the fields shown may differ between rows. MIC bound: limit read from a one-dose screen. a–b is a range or a potency band.